Measured values published in paper PMC13289030, “Qualification of the human Reconstructed Intestine Micronuclei Cytome assay for site-of-contact genotoxic hazard identification” (NAM journal, 2025).

Test system: EpiIntestinal™ microtissues
Assay: RICyt assay: micronuclei (MN) cytome scoring in EpiIntestinal microtissues after 10-day repeated apical exposure

Substance: Aflatoxin B1
- Conclusion (RICyt result compared with expected in vitro/in vivo results): Correct
